Measured values: PMC11701221, “WhiA transcription factor provides feedback loop between translation and energy production in a genome-reduced bacterium” (Frontiers in Microbiology, 2024)
Construct, isoform or probe ends are uncertain for at least one entry. For some of these results: At least one verdict rests on a figure or table, not on a statement of the authors. Where a protein sequence is shown, tags need not be part of it.

Key:
[1] = target: T1, Mgal-WhiA (Mycoplasma gallisepticum S6) (UniProt A0A0F6CKV5); assay: FRET; conditions: with F1 aux duplex; recombinant protein; label: 3' BHQ1 on strand 1
T1 sequence (looked up, limits assumed): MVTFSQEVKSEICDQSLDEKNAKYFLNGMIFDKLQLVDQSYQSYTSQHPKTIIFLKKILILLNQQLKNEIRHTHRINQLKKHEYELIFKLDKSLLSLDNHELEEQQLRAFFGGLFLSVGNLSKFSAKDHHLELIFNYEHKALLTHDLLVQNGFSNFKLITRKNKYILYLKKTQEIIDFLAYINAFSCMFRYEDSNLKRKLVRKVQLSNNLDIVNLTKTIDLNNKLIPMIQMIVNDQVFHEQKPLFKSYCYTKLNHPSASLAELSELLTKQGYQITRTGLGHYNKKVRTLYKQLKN

[2] = target: T1, Mgal-WhiA (Mycoplasma gallisepticum S6); assay: MST; conditions: no ATP; MST: PBS (10 mM Na phosphate pH 7.4, 140 mM NaCl, 3 mM KCl), 0.05% Tween-20, 50 mM imidazole, 50 nM duplex, 20 C; recombinant protein; label: 5' FAM (EMSA) or HEX (MST) on strand 1
[3] = target: T1, Mgal-WhiA (Mycoplasma gallisepticum S6); assay: EMSA; conditions: EMSA: 20 mM carbonate pH 9.8, 6% glycerol, 37 C 10 min, gel at 10 C, recombinant protein, label: 5' FAM (EMSA) or HEX (MST) on strand 1

Row | Sequence | binding result [1] | Kd [2] | Kd ([3]; 1 mM ATP) | Kd ([3]; no ATP)
1 | AAAGATTGCTGATACACCAAAA (double strand) [WhiA-Q3 (core half-site)] | binds | – | – | –
2 | AGCGATAAGTTTTACGAATTAAGTCGTTTATTATATAATA (double strand) [Negative control (plsC promoter)] | – | > 5 µM | > 5 µM | > 5 µM
